PubChem BioAssay AID1224833 – University of Georgia – 2016

Assay: 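Host factors restraining rotavirus as candidate antiviral genes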 (primary screen)
Cells: monkey MA104 kidney cells
Reagents: siRNA pool against human genes, 50 nM
Timing: 48 h knock-down before infection; read 24 h after infection
Challenge: infection with rotavirus strain RV3 two days after transfection; infectious dose for this stage not given
Measured: 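Rotavirus antigen per well by fluorescent immunoassay, normalised to non-targeting control wells on each plate and given as a standard z-score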
Direction: z-score vs non-targeting control: higher = more rotavirus replication than with non-targeting control
Active means: In these data the active calls have z-score vs non-targeting control at about -1 or lower, or at about 1 or higher
Meaning of the calls: active = z-score beyond 1 either way; inactive = z-score within 1 of zero
In all, the deposit lists about 12,000 reagents; shown is a random part of them. In the full data, about 5,600 (46%) were called active. 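Active calls cover z-scores past 1 in both directions, so they include lowered as well as raised rotavirus replication.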 Unmarked entries are inactive.

gene knocked down	z-score vs non-targeting control
RPL5 (GeneID 6125)	0.704
SNX2 (GeneID 6643)	-0.933
STRBP (GeneID 55342)	-1.26 (active)
GLIPR1L1 (GeneID 256710)	-0.999
SPCS2 (GeneID 9789)	-1.83 (active)
EIF3I (GeneID 8668)	-0.919
P2RY12 (GeneID 64805)	-1.13 (active)
WARS2 (GeneID 10352)	-1.17 (active)
HSD11B1L (GeneID 374875)	2.78 (active)
OR1A2 (GeneID 26189)	1.45 (active)
DPM2 (GeneID 8818)	-1.58 (active)
MSL3 (GeneID 10943)	1.67 (active)
KIF26A (GeneID 26153)	0.86
PLSCR4 (GeneID 57088)	1.39 (active)
SAMD4A (GeneID 23034)	-1.17 (active)
TCF7L2 (GeneID 6934)	-1.39 (active)
ALDH9A1 (GeneID 223)	-1.49 (active)
ACTR1A (GeneID 10121)	-0.694
OR4D2 (GeneID 124538)	-0.367
OR52B6 (GeneID 340980)	-1.03 (active)
STT3B (GeneID 201595)	-1.09 (active)
DIO2 (GeneID 1734)	1.33 (active)
ATP11A (GeneID 23250)	-0.757
SPN (GeneID 6693)	0.616
RAB39B (GeneID 116442)	-2.06 (active)
CRIPT (GeneID 9419)	-1.69 (active)
IFI27 (GeneID 3429)	-1.26 (active)
MFAP3 (GeneID 4238)	1.76 (active)
DNTTIP1 (GeneID 116092)	-0.675
RETNLB (GeneID 84666)	-5.67 (active)
CTRC (GeneID 11330)	0.919
MALSU1 (GeneID 115416)	-0.136
AMPD3 (GeneID 272)	0.581
DAND5 (GeneID 199699)	-1.43 (active)
PLCD3 (GeneID 113026)	1.66 (active)
HOXD8 (GeneID 3234)	2.05 (active)
SIGLEC9 (GeneID 27180)	0.641
FGF21 (GeneID 26291)	-1.77 (active)
PADI3 (GeneID 51702)	1.62 (active)
CPLANE2 (GeneID 79363)	-1.25 (active)
SSR3 (GeneID 6747)	0.0472
LRRC27 (GeneID 80313)	-0.445
AKR1C1 (GeneID 1645)	-1.22 (active)
FUT8 (GeneID 2530)	-0.938
MRTFB (GeneID 57496)	-0.668
EXT1 (GeneID 2131)	0.549
LVRN (GeneID 206338)	0.482
DPH5 (GeneID 51611)	1.09 (active)
SLC6A8 (GeneID 6535)	0.787
TMEM175 (GeneID 84286)	0.463
TULP2 (GeneID 7288)	-2.07 (active)
MAGOHB (GeneID 55110)	1.86 (active)
MTNAP1 (GeneID 55028)	0.792
ITLN1 (GeneID 55600)	-0.759
EML4 (GeneID 27436)	-0.231
TMSB4Y (GeneID 9087)	0.729
CSDC2 (GeneID 27254)	1.42 (active)
MRGBP (GeneID 55257)	-1.13 (active)
CST4 (GeneID 1472)	-1.16 (active)
GAL3ST3 (GeneID 89792)	1.98 (active)
GPA33 (GeneID 10223)	3.32 (active)
ZNF696 (GeneID 79943)	-0.544
SPAG6 (GeneID 9576)	-0.73
MTBP (GeneID 27085)	1.06 (active)
FNDC11 (GeneID 79025)	1.77 (active)
DNAJC27 (GeneID 51277)	0.808
FUZ (GeneID 80199)	-0.465
ZNF524 (GeneID 147807)	-0.887
ZRSR2 (GeneID 8233)	0.654
TJP1 (GeneID 7082)	-1.77 (active)
IGFBP6 (GeneID 3489)	1.71 (active)
KLRC1 (GeneID 3821)	-2.16 (active)
NDST1 (GeneID 3340)	0.542
IL26 (GeneID 55801)	-2.89 (active)
MAEA (GeneID 10296)	-0.265

5 of these entries, reformatted:
| gene knocked down | z-score vs non-targeting control |
| --- | --- |
| SNX2 (GeneID 6643) | -0.933 |
| STRBP (GeneID 55342) | -1.26 (active) |
| GLIPR1L1 (GeneID 256710) | -0.999 |
| SPCS2 (GeneID 9789) | -1.83 (active) |
| EIF3I (GeneID 8668) | -0.919 |
